Values joined by “and” are separate entries in the source; they are usually repeats but may differ in a detail not shown here. Equal values may be shown once. This is a selection: effects in other tests are not listed, and their absence says nothing.
Legend:
Assay in all cases: TryS screening assay (BIOMOL GREEN end-point)
Type in all cases: biochemical
[1] = molecular target: TbTryS (Trypanosoma brucei trypanothione synthetase) (Trypanosoma brucei brucei, UniProt Q8IEX1); conditions: compound 30 μM; 150 μM ATP, 2 mM SP, 0.05 mM GSH; relative to DMSO control
[2] = molecular target: TcTryS (Trypanosoma cruzi trypanothione synthetase) (Trypanosoma cruzi, UniProt Q9GT49); conditions: compound 30 μM, 150 μM ATP, 2 mM SP, 0.57 mM GSH
[3] = molecular target: LiTryS (Leishmania infantum trypanothione synthetase) (Leishmania infantum, UniProt A4I2Z3); conditions: compound 30 μM; 150 μM ATP, 2 mM SP, […] GSH; relative to DMSO control

The chains behind the UniProt entries cited, without tags or fusion partners. Residues count along the entry.
UniProt Q8IEX1, 1-627: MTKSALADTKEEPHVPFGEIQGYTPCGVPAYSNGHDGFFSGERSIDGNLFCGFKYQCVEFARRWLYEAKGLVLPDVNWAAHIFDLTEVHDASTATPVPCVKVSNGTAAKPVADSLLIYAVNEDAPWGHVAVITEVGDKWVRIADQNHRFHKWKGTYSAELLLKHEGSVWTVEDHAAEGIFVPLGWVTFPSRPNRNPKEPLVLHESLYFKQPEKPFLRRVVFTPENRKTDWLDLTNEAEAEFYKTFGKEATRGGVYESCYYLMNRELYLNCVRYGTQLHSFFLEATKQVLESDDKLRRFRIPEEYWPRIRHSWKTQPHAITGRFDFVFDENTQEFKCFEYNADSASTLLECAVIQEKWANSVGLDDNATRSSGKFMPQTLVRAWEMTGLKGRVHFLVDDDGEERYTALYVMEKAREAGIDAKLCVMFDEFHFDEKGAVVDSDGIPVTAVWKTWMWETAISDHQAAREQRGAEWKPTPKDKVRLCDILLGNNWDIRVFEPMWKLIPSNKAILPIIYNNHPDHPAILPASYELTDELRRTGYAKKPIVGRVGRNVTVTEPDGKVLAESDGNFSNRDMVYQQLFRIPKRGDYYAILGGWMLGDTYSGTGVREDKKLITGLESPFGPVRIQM
UniProt Q9GT49, whole entry: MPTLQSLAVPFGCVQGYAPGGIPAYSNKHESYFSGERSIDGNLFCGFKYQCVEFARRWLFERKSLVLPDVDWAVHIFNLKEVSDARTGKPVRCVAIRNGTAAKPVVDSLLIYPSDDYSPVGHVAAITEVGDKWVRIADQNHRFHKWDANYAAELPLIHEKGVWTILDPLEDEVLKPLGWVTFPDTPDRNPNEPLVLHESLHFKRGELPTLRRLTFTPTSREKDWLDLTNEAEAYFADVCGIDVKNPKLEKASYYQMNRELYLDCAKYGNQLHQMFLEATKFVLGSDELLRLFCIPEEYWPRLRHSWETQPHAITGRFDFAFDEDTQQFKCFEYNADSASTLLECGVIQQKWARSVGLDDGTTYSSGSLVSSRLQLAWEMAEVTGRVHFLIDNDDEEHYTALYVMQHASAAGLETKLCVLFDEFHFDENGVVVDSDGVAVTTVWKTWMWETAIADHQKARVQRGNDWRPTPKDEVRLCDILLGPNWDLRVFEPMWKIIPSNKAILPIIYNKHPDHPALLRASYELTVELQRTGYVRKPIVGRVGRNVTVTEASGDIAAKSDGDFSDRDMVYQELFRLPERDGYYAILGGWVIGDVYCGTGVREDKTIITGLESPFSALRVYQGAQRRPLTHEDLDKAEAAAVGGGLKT

## [O-][n+]1onc2c1c1no[n+]([O-])c1c1no[n+]([O-])c21
[1]
  TbTryS Activity ± 2σn-1 (%): 118.8 ± 2.4%
[2]
  % TcTryS inhibition ± 2σn-1: about 40%
[2]; relative to DMSO control
  TcTryS Activity ± 2σn-1 (%): 64.4 ± 3.8% and 64.4 ± 3.8; 4%
[3]
  LiTryS Activity ± 2σn-1 (%): 111.5 ± 14.5%

— PMC4829233, “Identification of Novel Chemical Scaffolds Inhibiting Trypanothione Synthetase from Pathogenic Trypanosomatids” (PLoS Neglected Tropical Diseases, 2016)
